From patent US6323185, “Anti-viral guanosine-rich oligonucleotides and method of treating HIV” (The United States of America as represented by the …)

Biological target: CD4 (UniProt P01730 P01730:26-396)
Assay: competition; ID50, oligo with immobilized CD4
Details: tags: immobilized, gp120 capture ELISA kit

B1: 1174 (ssDNA)
DNA: GGGTGGGTGGGTGGGTGG
modifications: all PS
IC50: 450 nM
